Pooled drug test results. Numbers come from NIAID ChemDB, via PubChem.

Common to all: whole-cell or culture tests; species: HIV-1

Blank or dashed fields: not listed here. ECn: concentration that inhibits the pathogen or its effect by n%. Neighbouring rows are from separate reports.

compound,strain or isolate,method,cell line,endpoint,changes,value
CCC[C@@H](c1ccc(C(F)(F)F)cc1)N1CCN(C2(C)CCN(C(=O)c3c(C)ncnc3C)CC2)C[C@@H]1C,YU-2 Clinical isolates,-,U-80,EC50,-,0.00035 µM
CC(C)CN(C[C@@H](O)[C@H](Cc1ccccc1)NC(=O)O[C@H]1CCOC1)S(=O)(=O)c1ccc(N)cc1,Clinical isolate,p24,PBMC,EC50,PR-L10I K14R R41K M46L I54V L63P A71V V82A L90M I93L,0.16 µM
Cc1cn([C@H]2C[C@H](N=[N+]=[N-])[C@@H](CO)O2)c(=O)[nH]c1=O,RF,cytopathic effect / XTT,CEM + CEM-SS,EC50,-,0.004 µM
C1CNCCNCCCN(CCCN2CCCNCCNCCCNCC2)CCNC1,NL4-3,cytopathic effect / MTT,MT-4,EC50,AMD3100-resistant,>25 µg/mL
CC(C)[C@H](NC(=O)c1ccc2ccccc2n1)C(=O)N[C@@H](Cc1ccccc1)[C@H](O)CN1CC[C@@H](OCc2ccncc2)C[C@H]1C(=O)NC(C)(C)C,VR1372,p24,PBMC,EC50,-,0.004 µM
c1cc(CN2CCCNCCNCCCNCC2)ccc1CN1CCCNCCNCCCNCC1,SW5 CLADE C R5,p24,PBMC,EC50,-,>0.5 µM
Cc1cn([C@H]2C=C[C@@H](CO)O2)c(=O)[nH]c1=O,LZ-05.95,cytopathic effect,MT-4,EC50,-,1.68 µM
CC(C)OC(=O)OCOP(=O)(CO[C@H](C)Cn1cnc2c(N)ncnc21)OCOC(=O)OC(C)C,Saquinavir-resistant (G48V L90M),p24,MT-2,EC50,RT-G48V L90M,0.01 µM
Nc1ccn([C@@H]2CO[C@H](CO)S2)c(=O)n1,HxB2D(RT-D67G),RT activity,MT-4,EC50,RT-D67G,8.8 µM
Cc1ccnc2c1NC(=O)c1cccnc1N2C1CC1,IIIB HEPT-resistant (RT Y188H),syncytia,CEM,EC50,RT-Y188H,5 µg/mL
Cc1cn([C@H]2C[C@H](N=[N+]=[N-])[C@@H](CO)O2)c(=O)[nH]c1=O,Site-directed mutant,cytopathic effect / XTT,MT-2,EC50,RT-K65R,0.5 µM
CCc1c(CC2CCCCC2)nc(SCC(=O)c2ccccc2)[nH]c1=O,IIIB,ELISA,C8166,EC50,-,0.0024 µM
Cc1cn([C@H]2C=C[C@@H](CO)O2)c(=O)[nH]c1=O,IIIB,p24,PBMC,EC50,-,0.023 µM
Cc1cccc(C)c1OCC(=O)N[C@@H](Cc1ccccc1)[C@@H](O)C[C@H](Cc1ccccc1)NC(=O)[C@H](C(C)C)N1CCCNC1=O,NL4-3,p24 / luminescence,MT-4,EC50,-,0.024 µM
Cc1ccc(S(=O)c2ccccc2[N+](=O)[O-])cc1,RF,cytopathic effect / XTT,CEM + CEM-SS,EC50,-,7.8 µM
Cc1ccnc(C(=O)CC(=O)c2cc(Cc3ccccc3)cc(CN3CCCS3(=O)=O)c2)c1,IIIB,p24,MT-4,EC50,-,<0.51 µM
c1ccc(-c2cc(CN3CCCNCCNCCCNCC3)cc(CN3CCCNCCNCCCNCC3)c2)cc1,168.10,cytopathic effect / MTT,SupT1 + Sup-T1,EC50,-,0.12 µg/mL
COC(=O)[C@H](C)NP(=O)(OC[C@@H]1C=C[C@H](n2cc(C)c(=O)[nH]c2=O)O1)Oc1ccc(Br)cc1,S762-4 Clinical isolate ZDV-resistant,p24,PBMC,EC50,RT-M41L T215Y,0.008 µM
Nc1nc(=O)n([C@@H]2CS[C@H](CO)O2)cc1F,LAI,cytopathic effect / XTT,MT-2,EC50,-,0.6 µM
CC(C)(C)NC(=O)[C@@H]1C[C@@H]2CCCC[C@@H]2CN1C[C@H](O)[C@H](Cc1ccccc1)NC(=O)[C@H](CC(N)=O)NC(=O)c1ccc2ccccc2n1,ROD,MTT,MT-2,EC50,-,0.0032 µM
Cc1ccnc2c1NC(=O)c1cccnc1N2C1CC1,HX,RT activity,MT-2,EC50,-,0.18 µM
CO[P@](=O)(c1cc(C)cc(/C=C/C#N)c1)c1c(C(N)=O)[nH]c2ccc(Cl)c(F)c12,WT (BH10),-,PBMC,EC50,-,0.0004 µM
Cc1cn([C@H]2C[C@H](N=[N+]=[N-])[C@@H](CO)O2)c(=O)[nH]c1=O,FO-08.96 (HXB2 RT F77L F116Y Q151M),cytopathic effect,MT-4,EC50,RT-F77L F116Y Q151M,>5 µM
Nc1nc(Nc2ccccc2)c2ncn(CCOCP(=O)(O)O)c2n1,IIIB,cytopathic effect / MTT,MT-4,EC50,-,56.3 µg/mL
CC(C)c1nc(CN(C)C(=O)N[C@H](C(=O)N[C@@H](Cc2ccccc2)C[C@H](O)[C@H](Cc2ccccc2)NC(=O)OCc2cncs2)C(C)C)cs1,Clinical isolate,p24,PBMC,EC50,PR-L10I K14R R41K M46L I54V L63P A71V V82A L90M I93L,>1 µM
CCOCn1c(Sc2ccccc2)c(CC)c(=O)[nH]c1=O,IIIB,syncytia,CEM,EC50,-,0.005 µg/mL
Nc1ccn([C@@H]2CS[C@H](CO)O2)c(=O)n1,7295-1 NRTI resistant recombinant,RT activity,PBMC,EC50,RT-D67N T69N K70R M184V T215F K219Q,>10 µM
COC(=O)c1cc(CN2CCCNCCNCCCNCC2)ccc1CN1CCCNCCNCCCNCC1,RF,cytopathic effect / MTT,MT-4,EC50,-,1.4 µg/mL
CCC[C@@]1(CCc2ccccc2)CC(O)=C([C@H](CC)c2cccc(NS(=O)(=O)c3ccc(C(F)(F)F)cn3)c2)C(=O)O1,Isolate N. Amer 3,p24,PBMC,EC50,-,<0.07 µM
Nc1nc(N)c2ncn([C@H]3CO[C@@H](CO)O3)c2n1,HXB2D,RT activity,CBMC,EC50,-,1.1 µM
Cc1cn([C@H]2C[C@H](N=[N+]=[N-])[C@@H](CO)O2)c(=O)[nH]c1=O,-,RT activity,MT-4,EC50,-,0.0025 µM
CC(=O)N1CCC(C(=O)N(CCCN2CCC(Cc3ccc(C(N)=O)cc3)CC2)c2ccc(C)c(Cl)c2)CC1,JR-FL R5,p24,PBMC,EC50,-,0.00064 µM
Cc1cn([C@H]2C[C@H](N=[N+]=[N-])[C@@H](CO)O2)c(=O)[nH]c1=O,clinical isolate A018C (RT D67N K70R T215Y K219Q),plaque count,HT4 + HT4-6C,EC50,RT-D67N K70R T215Y K219Q,2.3 µM
CC(C)CN(C[C@@H](O)[C@H](Cc1ccccc1)NC(=O)O[C@H]1CCOC1)S(=O)(=O)c1ccc(N)cc1,NL4-3,p24,MT-4,EC50,-,0.023 µM
O=S(=O)(c1ccccc1)c1ccccn1,RF,cytopathic effect / XTT,CEM + CEM-SS,EC50,-,68 µM
Cc1cc(=O)c2ccc(N=C=S)cc2o1,NL4-3,p24 / ELISA,PBMC,EC50,-,0.154 µM
Cc1cn([C@H]2C[C@H](N=[N+]=[N-])[C@@H](CO)O2)c(=O)[nH]c1=O,-,single cycle / fluorescence,PBMC,EC50,-,0.00642 µM
Cc1cn([C@@H]2O[C@H](CO[Si](C)(C)C(C)(C)C)C3(OS(=O)(=O)C=C3N)[C@H]2O[Si](C)(C)C(C)(C)C)c(=O)n(C)c1=O,IIIB PYR(RT-Y181C),syncytia,CEM,EC50,RT-Y181C,2.2 µg/mL
Cc1c(O)cccc1C(=O)N[C@@H](CSc1ccccc1)[C@H](O)CN1C[C@H]2CCCC[C@H]2C[C@H]1C(=O)NC(C)(C)C,NL4-3,p24,MT-4,EC90,-,0.025 µM
c1cc(CN2CCCNCCCNCCNCCC2)ccc1CN1CCCNCCCNCCNCCC1,168.10,cytopathic effect / MTT,SupT1 + Sup-T1,EC50,-,0.04 µg/mL
Nc1ccn([C@H]2CC[C@@H](CO)O2)c(=O)n1,PDBC,RT activity,MT-2,EC50,-,0.2 µM
Cc1ccccc1Cc1cccc(C(=O)CC(=O)C(=O)O)c1,HXB2,p24,-,EC50,-,0.47 µM
C=CCNc1ncnc2c1ncn2CCOCP(=O)(O)O,IIIB,cytopathic effect / MTT,CEM,EC50,-,8 µg/mL
O=C(NCc1ccc(F)cc1)c1nc(N2CCCCS2(=O)=O)c2cccnc2c1O,-,p24,-,EC50,INTG-T66I M154I,0.0128 µM
Nc1nc(=O)n([C@H]2CO[C@@H](CO)S2)cc1F,HXB2D (RT-M184V),RT activity,MT-4,EC50,RT-M184V,65 µM
O=[N+]([O-])c1ccccc1S(=O)(=O)c1ccccc1,LAV,-,CEM + CEM-SS,EC50,-,1.36 µM
Cc1c(O)cccc1C(=O)N[C@@H](CSc1ccccc1)[C@H](O)CN1C[C@H]2CCCC[C@H]2C[C@H]1C(=O)NC(C)(C)C,Clinical isolate,p24,PBMC,EC50,PR-L10I K14R R41K M46L I54V L63P A71V V82A L90M I93L,>1 µM
COC(=O)N[C@H](C(=O)N[C@@H](Cc1ccccc1)[C@@H](O)CN(Cc1ccc(-c2ccccn2)cc1)NC(=O)[C@@H](NC(=O)OC)C(C)(C)C)C(C)(C)C,BaL,p24 / luminescence,PBMC,EC50,-,0.0037 µM
C[C@H](CC1CNC2C1OC(N)CN2N)OCP(=O)(O)O,IIIB,cytopathic effect / MTT,CEM,EC50,-,>100 µg/mL
Cc1ncnc(C)c1C(=O)N1CCC(C)(N2CCN([C@@H](Cc3ccccc3)c3ccc(C(F)(F)F)cc3)[C@@H](C)C2)CC1,ADA-M Clinical isolates,-,PBMC,EC50,-,<0.00004 µM
c1cc(CN2CCCNCCCNCCNCCC2)cc(CN2CCCNCCCNCCNCCC2)c1,RF,cytopathic effect / MTT,MT-4,EC50,-,1.94 µg/mL
CCOCn1c(Cc2cc(C)cc(C)c2)c(CC)c(=O)[nH]c1=O,IIIB TIBO R82913-resistant (RT K103N),syncytia,CEM,EC50,RT-K103N,0.02 µg/mL
Nc1nc2c(ncn2[C@H]2CO[C@@H](CO)O2)c(=O)[nH]1,IIIB,RT activity,Jurkat cells,EC50,-,0.34 µM
O=S(=O)(c1ccccc1)c1ccccc1,RF,cytopathic effect / XTT,CEM + CEM-SS,EC50,-,49 µM
COc1ccc(S(=O)(=O)N(CC(C)C)C[C@@H](O)[C@H](Cc2ccccc2)NC(=O)O[C@H]2CO[C@H]3OCC[C@H]32)cc1,LAI Laboratory isolate,cytopathic effect / MTT,MT-2,EC50,-,0.0003 µM
Nc1ccn([C@H]2CC[C@@H](CO)O2)c(=O)n1,BI-03.97 (HXB2(RT-A62V S68G T69D V75I F77L F116Y Q151M)),cytopathic effect,MT-4,EC50,RT-A62V S68G T69D V75I F77L F116Y Q151M,>20 µM
O=c1c2ccccc2n2nnc3ccc(NCCCN4CCN(CCCNc5ccc6nnn7c8ccccc8c(=O)c5c67)CC4)c1c32,BaL,p24,MM + M/M,EC50,-,0.0198 µM
CCOCn1c(Sc2ccccc2)c(CC)c(=O)[nH]c1=S,IIIB NEV(RT-V106A),syncytia,CEM,EC50,RT-V106A,0.09 µg/mL
CC(=O)Oc1ccc(/C=C/C(=O)O[C@H](C(=O)O)[C@H](OC(=O)/C=C/c2ccc(OC(C)=O)c(OC(C)=O)c2)C(=O)O)cc1OC(C)=O,NL4-3,cytopathic effect / MTT,MT-4,EC50,DS-resistant,>93 µM
COC(=O)[C@H](C)NP(=O)(OC[C@@H]1C=C[C@H](n2cc(C)c(=O)[nH]c2=O)O1)Oc1ccc(Br)cc1,G704-2 NRTI resistant,p24,PBMC,EC50,RT-M41L D67N K70R L210W T215Y,0.0032 µM
Nc1ncnc2c1ncn2CCOCP(=O)(O)O,HXB2,cytopathic effect / XTT,MT-2,EC50,-,5.2 µM
Clc1cc(CN2CCCNCCNCCCNCC2)c(Cl)cc1CN1CCCNCCNCCCNCC1,NL4-3,cytopathic effect / MTT,MT-4,EC50,AMD3100-resistant,0.68 µg/mL
Nc1nc2c(ncn2[C@H]2CO[C@@H](CO)O2)c(=O)[nH]1,Site-directed mutant,cytopathic effect / XTT,MT-2,EC50,RT-K65R K103N,18.7 µM
C1CNCCNCCCN2CCCNCCNCCCN(C1)CC2,NL4-3,cytopathic effect / MTT,MT-4,EC50,-,7.18 µg/mL
Nc1nc(=O)n([C@@H]2CO[C@H](CO)S2)cc1F,HXB2D,RT activity,CBMC,EC50,-,4.25 µM
C[C@H](C[n+]1c[nH]c2c(Nc3ccoc3)nc(N)nc21)OCP(=O)(O)O,IIIB,cytopathic effect / MTT,CEM,EC50,-,7 ± 4.2 µg/mL
Nc1ccn([C@H]2CC[C@@H](CO)O2)c(=O)n1,HxB2D(RT-D67G),RT activity,MT-4,EC50,RT-D67G,0.08 µM
c1ccc(-c2cc(CN3CCCNCCNCCCNCC3)ccc2CN2CCCNCCNCCCNCC2)cc1,AOM,cytopathic effect / MTT,MT-4,EC50,-,0.34 µg/mL

A second listing of 5 rows from above:

Cc1ccnc2c1NC(=O)c1cccnc1N2C1CC1 ; strain or isolate: IIIB HEPT-resistant (RT Y188H) ; method: syncytia ; cell line: CEM ; endpoint: EC50 ; changes: RT-Y188H ; value: 5 µg/mL
Nc1nc2c(ncn2[C@H]2CO[C@@H](CO)O2)c(=O)[nH]1 ; strain or isolate: IIIB ; method: RT activity ; cell line: Jurkat cells ; endpoint: EC50 ; value: 0.34 µM
CC(C)(C)NC(=O)[C@@H]1C[C@@H]2CCCC[C@@H]2CN1C[C@H](O)[C@H](Cc1ccccc1)NC(=O)[C@H](CC(N)=O)NC(=O)c1ccc2ccccc2n1 ; strain or isolate: ROD ; method: MTT ; cell line: MT-2 ; endpoint: EC50 ; value: 0.0032 µM
Cc1ccnc2c1NC(=O)c1cccnc1N2C1CC1 ; strain or isolate: HX ; method: RT activity ; cell line: MT-2 ; endpoint: EC50 ; value: 0.18 µM
C[C@H](C[n+]1c[nH]c2c(Nc3ccoc3)nc(N)nc21)OCP(=O)(O)O ; strain or isolate: IIIB ; method: cytopathic effect / MTT ; cell line: CEM ; endpoint: EC50 ; value: 7 ± 4.2 µg/mL